Measurements reported in the supplement of paper PMC9931576.
Human monoclonal antibodies against the spike receptor-binding domain (heavy:light variable regions). IC50 against pseudoviruses bearing the spike of naturally observed variants; lower = stronger; >10 µg/ml means not reached at the top dose. No active / inactive call. The stated detection limit is 0.0005 µg/ml; values near or below 0.001 µg/ml lie at the floor of the assay.

B1: BD56-1412 (protein)
chain 1: QVQLVESGGGVVQPGRSLRLSCAASGFTFRHYGMHWVRQAPGKGLEWVAGISFDGDNKYNTDLVKGRFTISRDNSRNTLYLHMNTLRAEDTAIYYCAKMGGTYCAAGNCFASYFDYWGQGTLVTVSS
chain 2: DIQMTQSPSSLSASVGDRVTITCQTSQGISNYLNWYQHKPGKAPKLLIYGATSLETGVPSRFSGSGSGTDFSFTISSLQPEDVATYYCQQYASLPLAFGGGTKVDLK
B2: BD56-1397 (protein)
chain 1: QVQLVQSGAEVKKPGASVRVSCKASGYTFSDYYIHWVRQAPGQGLEWMGIVNPGGQSTAYAQKFQGRVAMTSATSTSTAYMELRSLKSEDTAVYYCARDAAAVPAALGGEYWGQGTLVTVSS
chain 2: EVVLTQSPATLSLSPGERATLSCRASQSISSYLAWYQQKAGQAPRLLIYDVSNRATGIPARFSGSGSGTDFTLTISSLEPEDFAVYYCQQRSNWPPFTFGPGTKVDIK
B3: BD56-1413 (protein)
chain 1: QVHLVQSGAEVKKPGASVKVSCKASGDTFTNHYIHWVRQAPGQGLEWMGIINPSGGSTSYAQKFQGRVTMTRDTSTSTVYMELSSLRSEDTAVYYCARDSSFIPQKYYYGLDVWGLGTTVTVSS
chain 2: DIQMTQSPSSLSASVGDRVTITCRASQSISNYLNWYQQKPGKAPKLLIYAASSLQSGVPSRFSGGGSGTDFALTISTLQPEDFATYYCQQSYITPPTFGQGTKVEIK
B4: BD56-1398 (protein)
chain 1: QVQLVQSGAEVKKPGASVKVSCMASRYTFTSYYLHWVRQAPGQGLQWMGIINPSGGSTTYAQKFQGRVTMTSDTSTSTVHMELSSLRSEDTAVYFCARGGVAPNLRGLFDYWGQGTLITVSS
chain 2: DIQMTQSPSTLSASVGDRVIITCRASQSIHTWLAWYQQKPGKAPSLLIYKASTLESGVPSRFSGSGSGTEFTLTISSLQPDDFATYYCQQYNSFSWTFGQGTKVEIK
B5: COV2-2539 (protein)
chain 1: QVQLAQSGAEVKKPGASVKVSCKAGGYTFTSYDINWVRQATGQGLEWMGWMNSNSGNAGYAQKFQGRVTMTRDTSISTAYMELSSLRSEDTAVYYCARMRTGWPTHGRPDDFWGRGTLVTVSS
chain 2: QSVLTQPPSASGTPGQRVTISCSGSNSNIGSYTVNWYQQFPGTAPKLLIYDNNQRTSGVPDRFSGSKSGTSASLAISGLQSEDEASYYCLAWDDSLNGLVFGGGTKLTVL
B6: BD56-1391 (protein)
chain 1: QVQLVESGGTVVHPGRSLRLSCAASGFTFSRYSMHWVRQAPGRGLEWMALISYDGNITYYADSMKGRFTISRDNSKNTLHLQMNSLRSEDTAVYFCVMGADTFDHWGQGTLVTVSS
chain 2: SYELTQPPSVSVSPGQTARITCSGDALPKQYGYWYQQKPGQAPILVIYKDNERPSGIPKRFSGSSSGTTVTLTISGVQAEDEADYYCQSADSSDTPHWVFGGGTKLTVL
B7: BD56-1410 (protein)
chain 1: QVQLVESGGGVVQPGRSLRLSCAASGFTFRNYGMHWVRQAPGKGLEWVAVIWYDGSNKYYADSVKGRFTISRDNSKNTLFLQMNSLRVEDTAVYYCARDYGVGATMEDYFDYWGQGTLVTVSS
chain 2: QSVLTQPPSASGTPGQRVSISCSGSSSNIGDNYVYWYQQFPGMAPKLLIYRNSQRPSGVPDRFSASKSGTSASLAISGLRSEDEADYYCAAWDDGLGGWVFGGGTKLTVL
B8: BD56-1342 (protein)
chain 1: QVQLVQSGAEVKKPGASVKVSCKASGYTFSSYYIHWVRQAPGQGLEWMGIINPSGGTTRHAQRFQGRVAMTRDTSTSTVYMDLSSLTSEDTAVYYCARELVVPAAGYMDVWGKGTTVTVSS
chain 2: SYVLAQPPSVSVAPGKTARITCGGNNIGSKSVHWYQQKPGQAPVLVVYDDSDRPSGIPDRFSGSNSGNTATLTISRVEAGDAADYYCQVWDGSSDHFYVFGTGTKVTVL
B9: BD56-1382 (protein)
chain 1: EVQLVESGGNLVQPGRSLRLSCAASGFTFDNYAMHWVRQAPGKGLEWVSGISWNSGTIVYADSVKGRFTISRDNAKHSLYLQMNSLRAEDTALYYCAKAQAEKYGYYYYGMDVWGQGTTVTVSS
chain 2: QSVLTQPPSVSGAPGQRVTISCTGGSSNIGTDYDVHWYQQLPGTAPKLLIYGNSNRPSGVPDRFSGSQSGTSASLAITGLQAEDEADYYCQSYDSSLSGWVFGGGTKLTVL
B10: BD56-1401 (protein)
chain 1: QVQLVESGGGVVQPGRSLRLSCAASGFNFRTYAMHWVRQAPGKGLEWVAIISYDGSIKDYADSVKGRFTISRDNSKNTLYVQMNNLRADDTALYYCAKGGGLYCSATTCSTGYFDYWGQGTLVTVSS
chain 2: EIVLTQSPGTLSLSPGERATLSCRASQSVSSSYLAWYRQKPGQAPRLLISDASSRAPGIPDRFSGSGSGTDFTLTISRLEPEDFAVYYCQQYGSSPLTFGGGTKVEIK
B11: BD56-1343 (protein)
chain 1: QVQLVQSGAEVKKPGASVKVSCKASGYTFTAYYIHWIRQAPGQGLEWMGVINPSAGSISYAQNFQGRVTMTGDTSTSTVYMELSSLRSEDTAVYYCARDESLIPAKGWFDPWGQGTPVTVSS
chain 2: EIVLTQSPGTLSLSPGERATLSCRASQSVSKYLAWYQQKPGQAPRLLIYDASNRATGIPARFSGSGSGTDFTLTISSLEPEDFAVYYCQQRGNWPPSYTFGQGTKLEIK
B12: BD56-1420 (protein)
chain 1: QVQVVESGGGVVQPGRSLRLSCAASGFTFSSYGMHWVRQAPGKGLEWVAVISYDGNDKFYGDSVKGRFTISRDNSKNILYLQMNSLRGDDTAVYHCAKDGPWELRYFDWLPRPHYLDYWGQGTLVAVSS
chain 2: QSVLTQPPSVSAAPGQKVTISCSGSNSNIANNYVSWYQQLPGTAPQLLIYDDDKRPSGIPDRFSGSKSGTSATLGITGLQTGDEADYYCGAWDSSLSTWVFGGGTKLTVL

target: SARS-CoV-2 Omicron BA.1 spike pseudovirus; assay: pseudovirus neutralization IC50; higher = weaker neutralization
Experimental: (§1)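 Single-round VSV luciferase pseudovirus mixed with antibody dilutions for 1 h and put on Huh-7 cells for about a day; IC50 from the dose curve.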

Binder | pseudovirus neutralization IC50
B1 | > 10 µg/mL
B2 | > 10 µg/mL
B3 | > 10 µg/mL
B4 | > 10 µg/mL
B5 | > 10 µg/mL
B6 | > 10 µg/mL
B7 | 1.27 µg/mL
B8 | > 10 µg/mL
B9 | 0.00089 µg/mL
B10 | > 10 µg/mL
B11 | 0.24 µg/mL
B12 | 0.356 µg/mL

target: SARS-CoV-2 Omicron BA.2 spike pseudovirus; assay: as above
Experimental: as §1

Binder | pseudovirus neutralization IC50
B1 | > 10 µg/mL
B2 | > 10 µg/mL
B3 | > 10 µg/mL
B4 | > 10 µg/mL
B5 | > 10 µg/mL
B6 | > 10 µg/mL
B7 | 0.915 µg/mL
B8 | > 10 µg/mL
B9 | 0.000599 µg/mL
B10 | > 10 µg/mL
B11 | 0.738 µg/mL
B12 | 0.00584 µg/mL

target: SARS-CoV-2 Omicron BA.2.75 spike pseudovirus; assay: as above
Experimental: as §1

Binder | pseudovirus neutralization IC50
B1 | > 10 µg/mL
B2 | > 10 µg/mL
B3 | > 10 µg/mL
B4 | > 10 µg/mL
B5 | > 10 µg/mL
B6 | > 10 µg/mL
B7 | 0.34 µg/mL
B8 | > 10 µg/mL
B9 | 0.504 µg/mL
B10 | > 10 µg/mL
B11 | 1.63 µg/mL
B12 | 0.235 µg/mL

target: SARS-CoV-2 Omicron BA.5 spike pseudovirus; assay: as above
Experimental: as §1

Binder | pseudovirus neutralization IC50
B1 | > 10 µg/mL
B2 | > 10 µg/mL
B3 | > 10 µg/mL
B4 | > 10 µg/mL
B5 | > 10 µg/mL
B6 | > 10 µg/mL
B7 | 0.369 µg/mL
B8 | > 10 µg/mL
B9 | 0.103 µg/mL
B10 | > 10 µg/mL
B11 | 0.366 µg/mL
B12 | 0.371 µg/mL

target: SARS-CoV-2 Omicron BQ.1.1 spike pseudovirus; assay: as above
Experimental: as §1

Binder | pseudovirus neutralization IC50
B1 | > 10 µg/mL
B2 | > 10 µg/mL
B3 | > 10 µg/mL
B4 | > 10 µg/mL
B5 | > 10 µg/mL
B6 | > 10 µg/mL
B7 | > 10 µg/mL
B8 | > 10 µg/mL
B9 | 3.85 µg/mL
B10 | > 10 µg/mL
B11 | 0.42 µg/mL
B12 | > 10 µg/mL

target: SARS-CoV-2 Omicron XBB spike pseudovirus; assay: as above
Experimental: as §1

Binder | pseudovirus neutralization IC50
B1 | > 10 µg/mL
B2 | > 10 µg/mL
B3 | > 10 µg/mL
B4 | > 10 µg/mL
B5 | > 10 µg/mL
B6 | > 10 µg/mL
B7 | 1.82 µg/mL
B8 | > 10 µg/mL
B9 | > 10 µg/mL
B10 | > 10 µg/mL
B11 | 0.49 µg/mL
B12 | 0.966 µg/mL

target: SARS-CoV-2 early D614G spike pseudovirus; assay: as above
Experimental: as §1

Binder | pseudovirus neutralization IC50
B1 | > 10 µg/mL
B2 | > 10 µg/mL
B3 | > 10 µg/mL
B4 | > 10 µg/mL
B5 | 0.186 µg/mL
B6 | > 10 µg/mL
B7 | 0.775 µg/mL
B8 | > 10 µg/mL
B9 | > 10 µg/mL
B10 | > 10 µg/mL
B11 | > 10 µg/mL
B12 | 0.00284 µg/mL
